Compound potency records, mixed from different reports. Data source: NIAID ChemDB in PubChem.

All rows: tests in culture; species: Candida glabrata

Rows are shuffled and stem from different studies.

O=C(c1ccccc1)C(c1ccccc1)n1cncn1 ; read-out: MIC90 ; method: agar ; value: 16 µg/mL
O=C(/C=C/c1ccc(Cl)cc1Cl)c1c[nH]c2ccccc12 ; read-out: MIC ; strain or isolate: ATCC 36583 ; method: broth dilution ; value: 200 µg/mL
NC=Nc1cccc(SCc2ccc(Cl)cc2)c1 ; read-out: MFC ; strain or isolate: BG2 ; value: 50 µM
CC(C)CC1NC(=O)CC(CCCCCCCCC(C)O)OC(=O)C(CC(C)C)NC(=O)C(CC(C)C)NC(=O)C(CC(C)C)NC(=O)C(C(C)C)NC(=O)C(CC(=O)O)NC(=O)C(CC(C)C)NC1=O ; read-out: MIC ; strain or isolate: MTCC 3019 ; method: absorbance ; value: 4 µg/mL
O=C(CCn1ccnc1)c1ccc(-c2ccccc2)cc1 ; read-out: MIC ; strain or isolate: RTCC 1040 ; method: broth dilution ; value: 4 µg/mL
C[C@H]1[C@H](O)[C@@H](C)/C=C/C=C/C=C/C=C/C=C/C=C/C=C/[C@H](O[C@@H]2O[C@H](C)[C@@H](O)[C@H](N)[C@@H]2O)C[C@@H]2O[C@](O)(C[C@@H](O)C[C@@H](O)CC[C@H](O)[C@@H](O)C[C@@H](O)CC(=O)O[C@H]1C)C[C@H](O)[C@H]2C(=O)O ; read-out: MIC ; strain or isolate: ATCC 9030 ; method: broth dilution ; value: 0.25 µg/mL
O=C1C=CC(=O)N1c1ccc(Br)cc1 ; read-out: MIC80 ; strain or isolate: DSM 11226 ; method: broth dilution ; value: 2 µg/mL
S=C=NCCCCCCCN=C=S ; read-out: MIC ; strain or isolate: 250 multidrug-resistant ; method: visual reading ; value: <1 µg/mL
CC1=C2C[C@@H]3[C@](C)(CCC[C@@]3(C)O)C[C@]2(O)OC1=O ; read-out: MIC ; strain or isolate: ATCC 90030 ; method: broth dilution ; value: >256 µg/mL
OC(CCn1ccnc1)c1ccc(-c2ccccc2)cc1 ; read-out: MIC ; strain or isolate: RTCC 1054 ; method: broth dilution ; value: >64 µg/mL
O=P(O)(O)OP(=O)(O)OP(=O)(O)O ; read-out: MIC ; strain or isolate: MC370 ; method: broth dilution ; value: 390 µg/mL
NC=Nc1cccc(SCc2cc(Br)cc(Br)c2)c1 ; read-out: MFC ; strain or isolate: BG2 ; value: 10 µM
O=C(O)c1ccc(C[C@H](C(=O)O)[C@@H](O)C(=O)O)cc1 ; read-out: MIC ; strain or isolate: DSM 11226 ; value: >4 µg/mL
O=C1C=CC(=O)N1CCN1CCOCC1 ; read-out: MIC80 ; strain or isolate: DSM 11226 ; method: broth dilution ; value: 128 µg/mL
NC(=O)c1cc[n+](Cc2ccc(C[n+]3ccc(C(N)=O)cc3)o2)cc1.[Br-].[Br-] ; read-out: EC50 ; method: broth dilution ; value: >20 µg/mL
CC(C)c1ccc(NS(=O)(=O)c2ccc(CN(C)CC(O)(Cn3cncn3)c3ccc(F)cc3F)cc2)cc1 ; read-out: MIC ; strain or isolate: 468 ; method: resazurin ; value: <0.001 µg/mL
C[C@@H](c1ncncc1F)[C@](O)(Cn1cncn1)c1ccc(F)cc1F ; read-out: MIC ; strain or isolate: 40 isolates ; setting: pH 7 ; method: broth dilution ; value: 0.125 µg/mL
OC(CCn1ccnc1)c1cccc(C(O)c2ccc(Cl)cc2)c1 ; read-out: MIC ; strain or isolate: RTCC 1040 ; method: broth dilution ; value: >64 µg/mL
c1ccc(C(c2ccccc2)n2ccnc2)cc1 ; read-out: MFC ; method: broth dilution ; value: 0.5 µg/mL
CC1=C2C3=C4[C@](C)([C@@H]5C[C@@H]5[C@@]4(O)C[C@@H]4[C@]35OC(=O)C3=C5C[C@H]5[C@](O)(COC(=O)/C(C)=C/COC(=O)CCC(=O)OC3)[C@H]3C[C@H]3[C@]45C)[C@H](O)[C@]2(O)OC1=O ; read-out: MIC ; strain or isolate: ATCC 90030 ; method: broth dilution ; value: >256 µg/mL
COc1ccc(C(c2ccc(OC)cc2)n2ccnc2)cc1 ; read-out: MIC90 ; method: agar ; value: >256 µg/mL
CN(C)CCN1C(=O)C=CC1=O ; read-out: MIC80 ; strain or isolate: DSM 11226 ; method: broth dilution ; value: 128 µg/mL
CC(=O)N1CCN(c2ccc(OC[C@H]3CO[C@](Cn4ccnc4)(c4ccc(Cl)cc4Cl)O3)cc2)CC1 ; read-out: MIC ; strain or isolate: 40 isolates ; setting: pH 5 ; method: broth dilution ; value: 8 µg/mL
Cc1ccc(N2N=C(c3c[nH]c4ccccc34)CC2c2cc(Cl)cc(Cl)c2)cc1 ; read-out: MIC ; strain or isolate: ATCC 36583 ; method: broth dilution ; value: 100 µg/mL
C[C@H]1[C@H](O)[C@@H](C)/C=C/C=C/C=C/C=C/C=C/C=C/C=C/[C@H](O[C@@H]2O[C@H](C)[C@@H](O)[C@H](N)[C@@H]2O)C[C@@H]2O[C@](O)(C[C@@H](O)C[C@@H](O)CC[C@H](O)[C@@H](O)C[C@@H](O)CC(=O)O[C@H]1C)C[C@H](O)[C@H]2C(=O)O ; read-out: MFC ; strain or isolate: MTCC 3019 ; method: broth dilution ; value: 2 µg/mL
CN(Cc1ccc(S(=O)(=O)Nc2ccc([N+](=O)[O-])cc2)cc1)CC(O)(Cn1cncn1)c1ccc(F)cc1F ; read-out: MIC ; strain or isolate: 468 ; method: resazurin ; value: <0.001 µg/mL
Nc1scc2c1c(=O)oc1ccccc12 ; read-out: MIC ; strain or isolate: IP35 ; method: broth dilution ; value: 32 µg/mL
CN(Cc1ccc(S(=O)(=O)Nc2ccccc2)cc1)CC(O)(Cn1cncn1)c1ccc(F)cc1F ; read-out: MIC ; strain or isolate: 468 ; method: resazurin ; value: 2 µg/mL
Cc1cc(C[n+]2cccc(C=NO)c2)on1.[Br-] ; read-out: EC50 ; method: broth dilution ; value: >20 µg/mL
Cc1ccc(C(O)c2cccc(C(=O)CCn3ccnc3)c2)cc1 ; read-out: MIC ; strain or isolate: RTCC 1054 ; method: broth dilution ; value: 16 µg/mL
Cc1coc2c1C(=O)[C@@H]1[C@](C)([C@H](O)CC[C@@]1(C)O)[C@@H]2O ; read-out: MIC ; strain or isolate: ATCC 90030 ; method: broth dilution ; value: >256 µg/mL
O=C1C=CC(=O)N1c1ccc([N+](=O)[O-])cc1 ; read-out: MIC80 ; strain or isolate: DSM 11226 ; method: broth dilution ; value: 2 µg/mL
Cc1ccc(N2N=C(c3c[nH]c4ccccc34)CC2c2c(Cl)cccc2Cl)cc1 ; read-out: MIC ; strain or isolate: ATCC 36583 ; method: broth dilution ; value: 200 µg/mL
CC(C)NS(=O)(=O)c1ccc(CN(C)CC(O)(Cn2cncn2)c2ccc(F)cc2F)cc1 ; read-out: MIC ; strain or isolate: 468 ; method: resazurin ; value: 0.014 µg/mL
NC(=O)c1cc[n+](CCCC[n+]2ccccc2/C=N/O)cc1.[Br-].[Br-] ; read-out: EC50 ; method: broth dilution ; value: >20 µg/mL
O=C1c2ccccc2CC1Cn1ccnc1 ; read-out: MIC ; strain or isolate: RTCC 1054 ; method: broth dilution ; value: >64 µg/mL
C[C@@H]1[C@H](O)[C@@H](C)/C=C/C=C/C=C/C=C/C=C/C=C/C=C/[C@H](O[C@@H]2O[C@H](C)[C@@H](O)[C@H](N)[C@@H]2O)C[C@@H]2O[C@](O)(C[C@@H](O)C[C@@H](O)[C@H](O)CC[C@@H](O)C[C@@H](O)CC(=O)O[C@H]1C)C[C@H](O)[C@H]2C(=O)O ; read-out: MIC80 ; strain or isolate: LMA 90-1085 ; method: broth dilution ; value: 0.5 µg/mL
O/N=C/c1ccc[n+](Cc2ccc(C[n+]3cccc(/C=N/O)c3)s2)c1.[Cl-].[Cl-] ; read-out: EC50 ; method: broth dilution ; value: >20 µg/mL
O=C(/C=C/c1ccc(Cl)c(Cl)c1)c1c[nH]c2ccccc12 ; read-out: MIC ; strain or isolate: ATCC 36583 ; method: broth dilution ; value: 400 µg/mL
CCC(C)n1ncn(-c2ccc(N3CCN(c4ccc(OC[C@H]5CO[C@](Cn6cncn6)(c6ccc(Cl)cc6Cl)O5)cc4)CC3)cc2)c1=O ; read-out: MIC ; strain or isolate: 40 isolates ; setting: pH 4 ; method: broth dilution ; value: 1 µg/mL
Clc1ccc(C(c2ccccc2)N2CCN(CCn3cncn3)CC2)cc1 ; read-out: MFC ; method: broth dilution ; value: 256 µg/mL
COc1cc(NC(C)CCCNC(=O)CCC(NC(=O)[C@H](N)CCCCN)C(=O)O)c2nc(C(C)(C)C)ccc2c1 ; read-out: EC50 ; method: broth dilution ; value: >20 µg/mL
O=C(CCn1ccnc1)c1cccc(C(O)c2ccc(Cl)c(Cl)c2)c1 ; read-out: MIC ; strain or isolate: RTCC 1040 ; method: broth dilution ; value: 64 µg/mL
C=CCc1ccc(O)c(OC)c1 ; read-out: MIC90 ; strain or isolate: 3080 ; method: turbidity ; value: 500 µg/mL
Cc1ccc(N2N=C(c3c[nH]c4ccccc34)CC2c2ccc(Cl)cc2Cl)cc1 ; read-out: MIC ; strain or isolate: ATCC 36583 ; method: broth dilution ; value: 200 µg/mL
COc1ccc(C2CC(c3ccc4ccccc4c3)=Cc3[nH][nH]c(=O)c32)cc1 ; read-out: MIC ; value: 50 µg/mL
CN(Cc1ccc(S(=O)(=O)NC(C)(C)C)cc1)CC(O)(Cn1cncn1)c1ccc(F)cc1F ; read-out: MIC ; strain or isolate: 468 ; method: resazurin ; value: <0.001 µg/mL
OC(CCn1ccnc1)c1cccc(C(O)c2ccc(Br)cc2)c1 ; read-out: MIC ; strain or isolate: RTCC 1040 ; method: broth dilution ; value: >64 µg/mL
O=c1[nH][nH]c2c1C(c1ccc(Br)cc1)CC(c1ccc3ccccc3c1)=C2 ; read-out: MIC ; value: 12.5 µg/mL
CCC(C)CC(C)CCCCCCCCC(=O)N[C@H]1C[C@@H](O)[C@H](NCCN)NC(=O)[C@@H]2[C@@H](O)CCN2C(=O)[C@H]([C@H](O)CCN)NC(=O)[C@H]([C@H](O)[C@@H](O)c2ccc(O)cc2)NC(=O)[C@@H]2C[C@@H](O)CN2C(=O)[C@H]([C@@H](C)O)NC1=O ; read-out: MIC ; strain or isolate: 40 isolates ; setting: pH 6 ; method: broth dilution ; value: 0.5 µg/mL
COC(=O)/C(C)=C1\C(=O)[C@H](O)[C@]2(C)C3=C1[C@]14OC(=O)C5=C1C[C@H]1[C@](O)(COC(=O)/C(C)=C/COC(=O)CCC(=O)OC5)[C@H]5C[C@H]5[C@]1(C)[C@@H]4C[C@]3(O)[C@H]1C[C@H]12 ; read-out: MIC ; strain or isolate: ATCC 90030 ; method: broth dilution ; value: >256 µg/mL
O=c1[nH][nH]c2c1C(c1ccc(F)cc1)CC(c1ccc3ccccc3c1)=C2 ; read-out: MIC ; value: 6.25 µg/mL

A second listing of 7 rows from above:

smiles	read-out	strain or isolate	setting	method	value
OC(CCn1ccnc1)c1cccc(C(O)c2ccc(Cl)cc2)c1	MIC	RTCC 1040		broth dilution	>64 µg/mL
CN(Cc1ccc(S(=O)(=O)Nc2ccccc2)cc1)CC(O)(Cn1cncn1)c1ccc(F)cc1F	MIC	468		resazurin	2 µg/mL
NC(=O)c1cc[n+](Cc2ccc(C[n+]3ccc(C(N)=O)cc3)o2)cc1.[Br-].[Br-]	EC50			broth dilution	>20 µg/mL
c1ccc(C(c2ccccc2)n2ccnc2)cc1	MFC			broth dilution	0.5 µg/mL
CC(=O)N1CCN(c2ccc(OC[C@H]3CO[C@](Cn4ccnc4)(c4ccc(Cl)cc4Cl)O3)cc2)CC1	MIC	40 isolates	pH 5	broth dilution	8 µg/mL
CN(C)CCN1C(=O)C=CC1=O	MIC80	DSM 11226		broth dilution	128 µg/mL
O=c1[nH][nH]c2c1C(c1ccc(F)cc1)CC(c1ccc3ccccc3c1)=C2	MIC				6.25 µg/mL

ECn is the concentration giving n% inhibition of infection, replication or growth. MIC50, MIC90 and the like: level of inhibition, or share of isolates inhibited. An empty or dashed field is not shown.